Data as given in PubChem BioAssay AID1259414 (Drosophila RNAi Screening Center, 2018).
Aim: 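Fly genes that alter Wolbachia amount inside host cells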 (primary screen). System: Drosophila JW18 cells infected with Wolbachia. Reagents: long dsRNA against Drosophila genes, 0.25 µg dsRNA per well of a 384-well plate. Timing: 5 days. Treatment: cells persistently infected with Wolbachia before knock-down; no added drug. Read-out: 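Automated imaging of bacterial rRNA staining divided by host cell count, reported as plate-normalised robust z-score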. Direction: Wolbachia per cell robust z: higher = more Wolbachia per host cell than the plate typical. Active means: 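Active if absolute robust z reaches 1.5 in two or more of three replicates, leaving out multi- or no-target dsRNAs, genes unexpressed in JW18 and A1 wells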.
The deposit covers about 24,000 reagents; this is an unselected part of those that have a named target and a result. Of all reagents, about 1,210 (5%) are marked active. 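Inactive calls also include excluded dsRNAs with several or no targets, genes unexpressed in JW18, and well A1, regardless of score.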 Names joined by + are all predicted targets of the reagent.

Cad99C (Cadherin 99C) [SID104194842]
- Wolbachia per cell robust z, rep 1: 0.773
- Wolbachia per cell robust z, rep 2: -0.838
- Wolbachia per cell robust z, rep 3: -0.144
- call: inactive

Cad99C (Cadherin 99C) [SID104196109]
- Wolbachia per cell robust z, rep 1: 0.287
- Wolbachia per cell robust z, rep 2: 1.14
- Wolbachia per cell robust z, rep 3: -1.04
- call: inactive

CG5877 [SID104199755]
- Wolbachia per cell robust z, rep 1: -2.63
- Wolbachia per cell robust z, rep 2: 0.581
- Wolbachia per cell robust z, rep 3: 0.303
- call: inactive

CG5877 [SID104206957]
- Wolbachia per cell robust z, rep 1: 1.37
- Wolbachia per cell robust z, rep 2: 1.31
- Wolbachia per cell robust z, rep 3: 0.801
- call: inactive

Tim9b + Pstk [SID104199296]
- Wolbachia per cell robust z, rep 1: -0.22
- Wolbachia per cell robust z, rep 2: -1.02
- Wolbachia per cell robust z, rep 3: 0.362
- call: inactive

Tim9b + Pstk [SID104200084]
- Wolbachia per cell robust z, rep 1: 0.181
- Wolbachia per cell robust z, rep 2: 1.34
- Wolbachia per cell robust z, rep 3: 0.481
- call: inactive

Ance-3 [SID104182440]
- Wolbachia per cell robust z, rep 1: -5.71
- Wolbachia per cell robust z, rep 2: 0.171
- Wolbachia per cell robust z, rep 3: 1.43
- call: inactive

Ance-3 [SID104182441]
- Wolbachia per cell robust z, rep 1: 0.0385
- Wolbachia per cell robust z, rep 2: -0.627
- Wolbachia per cell robust z, rep 3: -0.463
- call: inactive

CG4318 [SID104199679]
- Wolbachia per cell robust z, rep 1: 0.477
- Wolbachia per cell robust z, rep 2: -0.25
- Wolbachia per cell robust z, rep 3: 0.673
- call: inactive

CG6843 [SID104190517]
- Wolbachia per cell robust z, rep 1: -0.876
- Wolbachia per cell robust z, rep 2: -3.97
- Wolbachia per cell robust z, rep 3: 0.0225
- call: inactive

CG6843 [SID104208487]
- Wolbachia per cell robust z, rep 1: -1.84
- Wolbachia per cell robust z, rep 2: 0.518
- Wolbachia per cell robust z, rep 3: -0.4
- call: inactive

A stretch taken from the entries so far, for reference:
CG6843 [SID104190517]
- Wolbachia per cell robust z, rep 1: -0.876
- Wolbachia per cell robust z, rep 2: -3.97
- Wolbachia per cell robust z, rep 3: 0.0225
- call: inactive

CG6843 [SID104208487]
- Wolbachia per cell robust z, rep 1: -1.84
- Wolbachia per cell robust z, rep 2: 0.518
- Wolbachia per cell robust z, rep 3: -0.4
- call: inactive

Further records follow:
Setx (Senataxin) [SID104190651]
- Wolbachia per cell robust z, rep 1: 0.0334
- Wolbachia per cell robust z, rep 2: 0.984
- Wolbachia per cell robust z, rep 3: 1.28
- call: inactive

CG4049 [SID104184235]
- Wolbachia per cell robust z, rep 1: -0.00549
- Wolbachia per cell robust z, rep 2: -0.316
- Wolbachia per cell robust z, rep 3: -0.638
- call: inactive

CG4049 [SID104207682]
- Wolbachia per cell robust z, rep 1: -0.0787
- Wolbachia per cell robust z, rep 2: 1.08
- Wolbachia per cell robust z, rep 3: 0.193
- call: inactive

Polr1D + DCTN6-p27 [SID104181886]
- Wolbachia per cell robust z, rep 1: 0.274
- Wolbachia per cell robust z, rep 2: 0.549
- Wolbachia per cell robust z, rep 3: 0.0163
- call: inactive

CG12814 [SID104194344]
- Wolbachia per cell robust z, rep 1: 0.0738
- Wolbachia per cell robust z, rep 2: -0.345
- Wolbachia per cell robust z, rep 3: -0.053
- call: inactive

CG12814 [SID104194345]
- Wolbachia per cell robust z, rep 1: 0.455
- Wolbachia per cell robust z, rep 2: 0.183
- Wolbachia per cell robust z, rep 3: -3.04
- call: inactive
